Experimental data reported in ChEMBL document CHEMBL1133723, “Developing a dynamic pharmacophore model for HIV-1 integrase” (J Med Chem, 2000).

Target: Human immunodeficiency virus type 1 integrase (Human immunodeficiency virus 1) (UniProt Q7ZJM1)
Conditions: at 1 mM

O=C(NOCCOc1cccc(OCCONC(=O)NP(=O)(O)O)c1)NP(=O)(O)O
inhibition: < 50%
